Key:
WWPFQQ = target: T1, WWPFQQ
T1 chain: WWPFQQ

YYPFQQ = target: T2, YYPFQQ
T2 chain: YYPFQQ

LLPFQQ = target: T3, LLPFQQ
T3 chain: LLPFQQ

EEPFQQ = target: T4, EEPFQQ
T4 chain: EEPFQQ

FWPLPWPDDDY{LYSN3}NH2 = target: T5, FWPLPWPDDDY{LYSN3}NH2
T5 chain: FWPLPWPDDDYK

MMPFQQ = target: T6, MMPFQQ
T6 chain: MMPFQQ

FFPFQQ = target: T7, FFPFQQ
T7 chain: FFPFQQ

PLPWPDDDY{LYSN3}NH2 = target: T8, PLPWPDDDY{LYSN3}NH2
T8 chain: PLPWPDDDYX

WAAAFPDDDF1 = target: T9, WAAAFPDDDF1
T9 chain: WAAAFPDDDF

VVPFQQ = target: T10, VVPFQQ
T10 chain: VVPFQQ

YAAFAAWADDDW1 = target: T11, YAAFAAWADDDW1
T11 chain: YAAFAAWADDDW

IIPFQQ = target: T12, IIPFQQ
T12 chain: IIPFQQ

DDPFQQ = target: T13, DDPFQQ
T13 chain: DDPFQQ

TTPFQQ = target: T14, TTPFQQ
T14 chain: TTPFQQ

QQPFQQ = target: T15, QQPFQQ
T15 chain: QQPFQQ

HHPFQQ = target: T16, HHPFQQ
T16 chain: HHPFQQ

GGPFQQ = target: T17, GGPFQQ
T17 chain: GGPFQQ

PPPFQQ = target: T18, PPPFQQ
T18 chain: PPPFQQ

SSPFQQ = target: T19, SSPFQQ
T19 chain: SSPFQQ

RRPFQQ = target: T20, RRPFQQ
T20 chain: RRPFQQ

FYPLPWPDDDY{LYSN3}NH2 = target: T21, FYPLPWPDDDY{LYSN3}NH2
T21 chain: FYPLPWPDDDYX

[1] = target: T22, QP5-Atto649N (KAAAAAAFK{LYSN3}NH2)
T22 chain: KAAAAAAFKX

CCPFQQ = target: T23, CCPFQQ
T23 chain: CCPFQQ

AAPFQQ = target: T24, AAPFQQ
T24 chain: AAPFQQ

KKPFQQ = target: T25, KKPFQQ
T25 chain: KKPFQQ

NNPFQQ = target: T26, NNPFQQ
T26 chain: NNPFQQ

FPFPFP{LYSN3}NH2 = target: T27, FPFPFP{LYSN3}NH2
T27 chain: FPFPFPX

LPWPDDDY{LYSN3}NH2 = target: T28, LPWPDDDY{LYSN3}NH2
T28 chain: LPWPDDDYX

[2] = target: Attor6g-1kPEG-ODN-DD60-Biotin
GlyProArgPro = target: T29, GlyProArgPro
T29 chain: GPRP

DDPDDP{LYSN3}NH2 = target: T30, DDPDDP{LYSN3}NH2
T30 chain: DDPDDPX

AAMAAM{LYSN3}NH2 = target: T31, AAMAAM{LYSN3}NH2
T31 chain: AAMAAMX

YPLPWPDDDY{LYSN3}NH2 = target: T32, YPLPWPDDDY{LYSN3}NH2
T32 chain: YPLPWPDDDYX

[3] = target: T33, KKMKKMLys-Triazole-PEG4 Biotin
T33 chain: KKMKKMX

RRPRRP{LYSN3}NH2 = target: T34, RRPRRP{LYSN3}NH2
T34 chain: RRPRRPX

AAPAAP{LYSN3}NH2 = target: T35, AAPAAP{LYSN3}NH2
T35 chain: AAPAAPX

KKPKKP{LYSN3}NH2 = target: T36, KKPKKP{LYSN3}NH2
T36 chain: KKPKKPX

KKMKKM{LYSN3}NH2 = target: T37, KKMKKM{LYSN3}NH2
T37 chain: KKMKKMX

B1: Vibrio proteolyticus aminopeptidase (protein)
chain: MPPITQQATVTAWLPQVDASQITGTISSLESFTNRFYTTTSGAQASDWIASEWQALSASLPNASVKQVSHSGYNQKSVVMTITGSEAPDEWIVIGGHLDSTIGSHTNEQSVAPGADDDASGIAAVTEVIRVLSENNFQPKRSIAFMAYAAEEVGLRGSQDLANQYKSEGKNVVSALQLDMTNYKGSAQDVVFITDYTDSNFTQYLTQLMDEYLPSLTYGFDTCGYACSDHASWHNAGYPAAMPFESKFNDYNPRIHTTQDTLANSDPTGSHAKKFTQLGLAYAIEMGSATGDTPTPGNQ
- HPLC Assay Conv; 1 mM Peptide, 1 uM enzyme, RT/0.5 hr (WWPFQQ): 82%
- HPLC Assay Conv; 1 mM Peptide, 1 uM enzyme, RT/0.5 hr (YYPFQQ): 56%
- HPLC Assay Conv; 1 mM Peptide, 1 uM enzyme, RT/0.5 hr (LLPFQQ): 100%
- HPLC Assay Conv; 1 mM Peptide, 1 uM enzyme, RT/0.5 hr (EEPFQQ): 0%
- HPLC Assay Conv; 200 uM Peptide, 4 uM enzyme, 37 C/1 hr (FWPLPWPDDDY{LYSN3}NH2): 100%
- HPLC Assay Conv; 400 uM Peptide, 8 uM enzyme, HEPES pH 8.0, 37 C/1 hr (FWPLPWPDDDY{LYSN3}NH2): 100%
- HPLC Assay Conv; 1 mM Peptide, 1 uM enzyme, RT/0.5 hr (MMPFQQ): 100%
- HPLC Assay Conv; 1 mM Peptide, 1 uM enzyme, RT/0.5 hr (FFPFQQ): 100%
- HPLC Assay Conv; 300 uM Peptide, 4 uM enzyme, 37 C/0.5 hr (PLPWPDDDY{LYSN3}NH2): 100%
- HPLC Assay Conv; 300 uM Peptide, 8 uM enzyme, pH 8, 60 mM KOAc, 37 C/2 hr (WAAAFPDDDF1): 100%
- HPLC Assay Conv; 1 mM Peptide, 1 uM enzyme, RT/0.5 hr (VVPFQQ): 100%
- HPLC Assay Conv; 1 mM Peptide, 1.2 uM enzyme, RT/0.5 hr (YAAFAAWADDDW1): Distribution (product: Mainly ADDDWK)
- HPLC Assay Conv; 1 mM Peptide, 1 uM enzyme, RT/0.5 hr (IIPFQQ): 100%
- HPLC Assay Conv; 1 mM Peptide, 1 uM enzyme, RT/0.5 hr (DDPFQQ): 0%
- HPLC Assay Conv; 1 mM Peptide, 1 uM enzyme, RT/0.5 hr (TTPFQQ): 100%
- HPLC Assay Conv; 1 mM Peptide, 1 uM enzyme, RT/0.5 hr (QQPFQQ): 66%
- HPLC Assay Conv; 1 mM Peptide, 1 uM enzyme, RT/0.5 hr (HHPFQQ): 12%
- HPLC Assay Conv; 1 mM Peptide, 1 uM enzyme, RT/0.5 hr (GGPFQQ): 8%
- HPLC Assay Conv; 1 mM Peptide, 1 uM enzyme, RT/0.5 hr (PPPFQQ): 0%
- HPLC Assay Conv; 1 mM Peptide, 1 uM enzyme, RT/0.5 hr (SSPFQQ): 48%
- HPLC Assay Conv; 1 mM Peptide, 1 uM enzyme, RT/0.5 hr (RRPFQQ): 79%
- HPLC Assay Conv; 200 uM Peptide, 4 uM enzyme, 37 C/0.5 hr (FYPLPWPDDDY{LYSN3}NH2): 100%
- HPLC Assay Conv; 300 uM Peptide, 4 uM enzyme, 37 C/0.5 hr (FYPLPWPDDDY{LYSN3}NH2): 100%
- HPLC Assay Conv; 37 uM Peptide, 8 uM Enzyme, 37 C/0.5 hr [1]: 100%
- HPLC Assay Conv; 1 mM Peptide, 1 uM enzyme, RT/0.5 hr (CCPFQQ): 70%
- HPLC Assay Conv; 1 mM Peptide, 1 uM enzyme, RT/0.5 hr (AAPFQQ): 100%
- HPLC Assay Conv; 1 mM Peptide, 1 uM enzyme, RT/0.5 hr (KKPFQQ): 32%
- HPLC Assay Conv; 1 mM Peptide, 1 uM enzyme, RT/0.5 hr (NNPFQQ): 15%

B2: Y. pestis proline iminopeptidase (protein)
chain: MTQQEYQNRRQALLAKMAPGSAAIIFAAPEATRSADSEYPYRQNSDFSYLTGFNEPEAVLILVKSDETHNHSVLFNRIRDLTAEIWFGRRLGQEAAPTKLAVDRALPFDEINEQLYLLLNRLDVIYHAQGQYAYADNIVFAALEKLRHGFRKNLRAPATLTDWRPWLHEMRLFKSAEEIAVLRRAGEISALAHTRAMEKCRPGMFEYQLEGEILHEFTRHGARYPAYNTIVGGGENGCILHYTENECELRDGDLVLIDAGCEYRGYAGDITRTFPVNGKFTPAQRAVYDIVLAAINKSLTLFRPGTSIREVTEEVVRIMVVGLVELGILKGDIEQLIAEQAHRPFFMHGLSHWLGMDVHDVGDYGSSDRGRILEPGMVLTVEPGLYIAPDADVPPQYRGIGIRIEDDIVITATGNENLTASVVKDPDDIEALMALNHAGENLYFQE
- HPLC Assay Conv; 1 mM Peptide, 7 uM Enzyme, 37 C/0.5 hr (FPFPFP{LYSN3}NH2): 100%
- HPLC Assay Conv; 300 uM Peptide, 7 uM enzyme, 37 C/0.5 hr (LPWPDDDY{LYSN3}NH2): 100%
- HPLC Assay Conv; 10 uM Peptide, 7 uM Enzyme, 37 C/0.5 hr [2]: 100%
- HPLC Assay Conv; 20 uM Q24 conjugate, 30 uM ypip, 30 C/0.3 hr [2]: 100%
- HPLC Assay Conv; 5 mM peptide, 50 nM enzyme, 30 C/1 hr (GlyProArgPro): 100%
- HPLC Assay Conv; 1 mM peptide, 700 nM enzyme, 30 C/6 hrs (DDPDDP{LYSN3}NH2): 0%
- HPLC Assay Conv; 1 mM peptide, 700 nM enzyme, 30 C/6 hrs (AAMAAM{LYSN3}NH2): 0%
- HPLC Assay Conv; 300 uM Peptide, 7 uM enzyme, 37 C/0.5 hr (YPLPWPDDDY{LYSN3}NH2): 100%

B3: rat aminopeptidase N (protein)
chain: KPWNQYRLPKTLIPDSYQVTLRPYLTPNEQGLYIFKGSSTVRFTCNETTNVIIIHSKKLNYTNKGNHRVALRALGDTPAPNIDTTELVERTEYLVVHLQGSLVKGHQYEMDSEFQGELADDLAGFYRSEYMEGGNKKVVATTQMQAADARKSFPCFDEPAMKASFNITLIHPNNLTALSNMLPKDSRTLQEDPSWNVTEFHPTPKMSTYLLAYIVSEFKYVEAVSPNRVQIRIWARPSAIDEGHGDYALQVTGPILNFFAQHYNTAYPLEKSDQIALPDFNAGAMENWGLVTYRESALVFDPQSSSISNKERVVTVIAHELAHQWFGNLVTVDWWNDLWLNEGFASYVEFLGADYAEPTWNLKDLIVLNDVYRVMAVDALASSHPLSSPANEVNTPAQISELFDSITYSKGASVLRMLSSFLTEDLFKKGLSSYLHTFQYSNTIYLDLWEHLQQAVDSQTAIKLPASVSTIMDRWILQMGFPVITVNTSTGEIYQEHFLLDPTSKPTRPSDFNYLWIVPIPYLKNGKEDHYWLETEKNQSAEFQTSSNEWLLLNINVTGYYQVNYDENNWRKIQNQLQTDLSVIPVINRAQIIHDSFNLASAGKLSITLPLSNTLFLASETEYMPWEAALSSLNYFKLMFDRSEVYGPMKRYLKKQVTPLFAYFKIKTNNWLDRPPTLMEQYNEINAISTACSSGLEECRDLVVGLYSQWMNNSDNNPIHPNLRSTVYCNAIAFGGEEEWNFAWEQFRKATLVNEADKLRSALACSNEVWILNRYLSYTLNPDYIRKQDATSTIVSIANNVVGQTLVWDFVRSNWKKLFEDYGGGSFSFANLIQGVTRRFSSEFELQQLEQFKEDNSATGFGSGTRALEQALEKTKANIKWVKENKDVVLKWFTENS
- HPLC Assay Conv; 1 mM peptide, 150 nM enzyme, 30 C/1 hr [3]: >90%
- HPLC Assay Conv; 1 mM peptide, 50 nM enzyme, 30 C/1 hr (RRPRRP{LYSN3}NH2): 55%
- HPLC Assay Conv; 1 mM peptide, 50 nM enzyme, 30 C/1 hr (AAPAAP{LYSN3}NH2): 100%
- HPLC Assay Conv; 1 mM peptide, 50 nM enzyme, 30 C/1 hr (KKPKKP{LYSN3}NH2): 85%
- HPLC Assay Conv; 37 uM Peptide, 100 nM Enzyme, 37 C/0.5 hr [1]: >95%
- HPLC Assay Conv; 1 mM peptide, 50 nM enzyme, 30 C/1 hr (KKMKKM{LYSN3}NH2): 50%
